The nature of this data set: Drug interaction studies with oral rilpivirine. To be noted: rilpivirine 150 mg once daily; No Effect = 1.00.

As for Darunavir/ritonavir, the “Geometric Mean Ratio of coadministered drug AUC with/without EDURANT” value was 0.89, the “Geometric Mean Ratio of coadministered drug Cmax with/without EDURANT” value came to 0.90, the “Geometric Mean Ratio of coadministered drug Cmin with/without EDURANT” value is given as 0.89 and the “Geometric Mean Ratio of rilpivirine AUC with/without coadministered drug” value is reported as 2.30. Further, the “Geometric Mean Ratio of rilpivirine Cmax with/without coadministered drug” value was determined as 1.79 and the “Geometric Mean Ratio of rilpivirine Cmin with/without coadministered drug” value is given as 2.78.

(Values after patent publication US12636285B2 (dated 2026).)
